According to article PMC8386730, “Pyrrolidine-based 3-deoxysphingosylphosphorylcholine analogs as possible candidates against neglected tropical diseases (NTDs): identification of hit compounds towards development of potential treatment of Leishmania donovani” (Journal of Enzyme Inhibition and Medicinal Chemistry, 2021):

Columns and labels:
HEK293T cells = assay: Cytotoxicity against HEK293T cells (resazurin); assay type: cell-based, human; details: CC50 HEK293T divided by IC50 intracellular L. donovani
Excerpt: As the extracellular promastigotes form represents the insect stage of the parasite, assessment of activity is needed to confirm activity against the intracellular amastigotes form, which is the human host form (mammalian host form). In addition, a preliminary assessment of selectivity and safety might be desirable to evaluate the quality of hit compounds. Accordingly, compound 1e and its enantiomer; 1a, in parallel with standard drugs miltefosine and erufosine were submitted for evaluation in intracellular amastigotes model using infected THP-1 cells; human monocytic cell line derived from an acute monocytic leukaemia. In addition, cytotoxicity of tested compounds and standards were evaluated against THP-1 cells and normal human embryonic kidney cells; HEK293T to evaluate selectivity and safety. Cytotoxicity against HEK293T cell growth was assayed by measuring the conversion of resazurin to resorufin. The assays were performed in 384-well plates that were seeded with HEK293T cells (1000 cells per well). After seeding, the cells were exposed to the compounds for 3 days. Resazurin sodium salt (200 µM; R7017; Sigma-Aldrich, St. Louis, MO, USA) was then added, and the samples were incubated for 5 h. After incubation, the […] were fixed using 4% paraformaldehyde, and the plates were analysed using a Victor3TM plate reader (PerkinElmer, Inc., Waltham, MA, USA) at 590 nm (emission) and 530 nm (excitation). Miltefosine and saponin were used as the reference drugs for the HEK293T growth inhibition.

[1] = system: L. donovani promastigotes; assay: Growth inhibition of L. donovani promastigotes (resazurin-based assay); assay type: cell-based, Leishmania donovani; details: enantiomers 1e/1a
Procedure: Out of 20 known Leishmania species pathogenic to humans, L. donovani, which causes visceral leishmaniasis, is the most fatal. Consequently, an in vitro model of L. donovani promastigotes[26] was selected to evaluate the activity of the synthesised pyrrolidine-based 3-deoxysphingosylphosphorylcholine analogs 1e–i, 2a–f, 3a–f at two concentration (50 and 25 µM) employing miltefosine and erufosine (ErPC; erucylphosphocholine) as reference standards using a resazurin-based assay.
For comparison, erufosine and miltefosine were used as reference standards.
L. donovani MHOM/SD/62/1S-CL2D parasites were cultured as promastigotes at 28 °C in M199 medium (Sigma-Aldrich, St. Louis, MO, USA) with 40 mM HEPES, 0.1 mM adenine, 0.0001% biotin, and 4.62 mM NaHCO3 supplemented with 10% foetal bovine serum (FBS, Gibco, Carlsbad, CA, USA), […] penicillin (Gibco), and 100 µg/mL streptomycin (Gibco). Parasites were sub-cultured every 3 or 4 days and maintained for 10 passages.
The plates were analysed using a Victor3TM plate reader (PerkinElmer, Inc., Waltham, MA, USA) at 590 nm (emission) and 530 nm (excitation). Miltefosine and erufosine were used as the reference standards. All measured and calculated values are the averages of duplicates. The dose-response curves were generated by GraphPad Prism 6 software using a sigmoidal dose-response equation with a variable hill slope option.

## CCCCCCCC/C=C\CCCCCCCCCCCCOP(=O)([O-])OCC[N+](C)(C)C [Erufosine, erucylphosphocholine, reference compound]
HEK293T cells
  Safety index: 11.3

## CCCCCCCCCCCCCCCCOP(=O)([O-])OCC[N+](C)(C)C [Miltefosine, miltefosine, reference compound]
HEK293T cells
  Safety index: >78.4

## CCCCCCCCCCCCCCCC(=O)N1CCC[C@H]1COP(=O)([O-])OCC[N+](C)(C)C [Compound 1e]
[1]
  Eudismic ratio: 0.54
HEK293T cells
  Safety index: 3.2

## CCCCCCCCCCCCCCCC(=O)N1CCC[C@@H]1COP(=O)([O-])OCC[N+](C)(C)C [Compound 1a]
[1]
  Eudismic ratio: 0.54
HEK293T cells
  Safety index: 2.7
